Assay results taken from patent publication US20080102078.

Target: E. coli heat-labile enterotoxin subunit B pentamer (B5), from human enterotoxigenic E. coli H10407, Escherichia coli H10407 (human enterotoxigenic), P0CK94 22-124

For “LTA(S61K), mutated subunit A of LTh(S61K)”, the The ratio of AB5/AB5 + B5 (%) was 92%.
Work on “LTA(S61Y), mutated subunit A of LTh(S61Y)” yielded a The ratio of AB5/AB5 + B5 (%) of 57%.
Substance “LTA(S61F), mutated subunit A of LTh(S61F)” has a The ratio of AB5/AB5 + B5 (%) of 70%.
“LTA(S61H), mutated subunit A of LTh(S61H)” gave a The ratio of AB5/AB5 + B5 (%) of 60%.
Work on “LTA(S61R), mutated subunit A of LTh(S61R)” yielded a The ratio of AB5/AB5 + B5 (%) of 85%.
